Reference: publication PMC9971899, “Identification and structural analysis of a carbohydrate-binding module specific to alginate, a representative of a new family, CBM96” (The Journal of Biological Chemistry, 2022)

The compounds below were run on TM6-N4 (assay: Isothermal titration calorimetry of alginate and oligoalginate binding to TM6-N4). Conditions: ITC, 25 °C, pH 7.0.
Set-up: species or system Defluviitalea phaphyphila
Method: To characterize the binding of TM6-N4 to alginate, isothermal titration calorimetry (ITC) experiments were carried out at 25 °C and pH 7.0, with alginate and oligoalginate standards including G3, G4, G5, G6, G7, M3, M5, M6, and M7 as substrate and TM6-N4 as the enzyme. […] Nevertheless, G3 produced a profile of CBM–ligand interaction (Fig. 2A). It is thus likely that the binding sites of TM6-N4 required at least three uronic acid units to yield stable binding complexes. […] These discrepancies may reflect the fact that one alginate chain has accommodated several protein molecules and the fact of the thermodynamic instability of the long alginate chain.
Figure 2 Thermograms (upper panels) and binding isotherms with theoretical fits (lower panels) obtained for the binding. G3 (A), G4 (B), G5 (C), G6 (D), G7 (E), M3 (F), M5 (G), M6 (H), M7 (I), and alginate (J) to TM6-N4. The buffer used was 20 mM Tris–HCl buffer, pH 7.0. Protein concentration was 20 μM for TM6-N4.
The proteins were dialyzed extensively against buffer with 20 mM Tris–HCl (pH 7.0) without NaCl and adjusted concentration to 20 μM, and the oligosaccharide ligands (purity ≥95%; Qingdao BZ Oligo Biotech Co Ltd) or alginate ligands (viscosity >0.02 Pa·s, 1% alginate in H2O at 25 °C) were dissolved in the same buffer to minimize heats of dilution with a concentration of 200 μM. To avoid bubble formation, all the samples were degassed by centrifugation at 12,000 rpm/10 min. Calorimetric titration was performed with MicroCal PEAQ-ITC (Malvern Panalytical). During a titration experiment, the protein sample was stirred at a speed of 750 rpm and kept a constant temperature of 25 °C, and the titration needle was filled with 80 μl oligosaccharide or alginate ligand. Titrations were completed after 19 injections (each 3 μl) at an interval of 150 s. The data were analyzed by using the one-site binding model in the MicroCal PEAQ-ITC Analysis software. The fitted data yielded the dissociation constant (Kd), the number of binding sites on the protein (n), and the enthalpy of binding (ΔH). Other thermodynamic parameters can be calculated by using the standard thermodynamic equation ΔG = −RTln Ka = ΔH-TΔS. Titrations were carried out in triplicate for most ligands, and the errors are the SD of the mean of these replicates.

Compared with `O=C(O)[C@@H]1O[C@@H](O[C@H]2[C@H](O)[C@H](O)[C@H](O[C@H]3[C@H](O)[C@H](O)C(O)O[C@H]3C(=O)O)O[C@H]2C(=O)O)[C@@H](O)[C@@H](O)[C@@H]1O` (some centres unmarked) [G3], `O=C(O)[C@@H]1O[C@@H](O[C@H]2[C@H](O)[C@H](O)[C@H](O[C@H]3[C@H](O)[C@H](O)[C@H](O[C@H]4[C@H](O)[C@H](O)C(O)O[C@H]4C(=O)O)O[C@H]3C(=O)O)O[C@H]2C(=O)O)[C@@H](O)[C@@H](O)[C@@H]1O` (some centres unmarked) [G4] is higher in “N (number of binding sites)” value: 0.3 ± 0.04 site for the first, 1.2 ± 0.02 site for the second.

Compared with `O=C(O)[C@@H]1O[C@@H](O[C@H]2[C@H](O)[C@H](O)[C@H](O[C@H]3[C@H](O)[C@H](O)[C@H](O[C@H]4[C@H](O)[C@H](O)[C@H](O[C@H]5[C@H](O)[C@H](O)C(O)O[C@H]5C(=O)O)O[C@H]4C(=O)O)O[C@H]3C(=O)O)O[C@H]2C(=O)O)[C@@H](O)[C@@H](O)[C@@H]1O` (some centres unmarked) [G5], `O=C(O)[C@H]1O[C@@H](O[C@H]2[C@H](O)[C@H](O)[C@H](O[C@H]3[C@H](O)[C@H](O)[C@H](O[C@H]4[C@H](O)[C@H](O)[C@H](O[C@H]5[C@H](O)[C@H](O)C(O)O[C@@H]5C(=O)O)O[C@@H]4C(=O)O)O[C@@H]3C(=O)O)O[C@@H]2C(=O)O)[C@@H](O)[C@@H](O)[C@@H]1O` (some centres unmarked) [M5, mannuronate pentasaccharide] is lower in “N (number of binding sites)” value: 0.9 ± 0.02 site for the first, 0.6 ± 0.04 site for the second.

Compared with `O=C(O)[C@@H]1O[C@@H](O[C@H]2[C@H](O)[C@H](O)[C@H](O[C@H]3[C@H](O)[C@H](O)[C@H](O[C@H]4[C@H](O)[C@H](O)[C@H](O[C@H]5[C@H](O)[C@H](O)[C@H](O[C@H]6[C@H](O)[C@H](O)C(O)O[C@H]6C(=O)O)O[C@H]5C(=O)O)O[C@H]4C(=O)O)O[C@H]3C(=O)O)O[C@H]2C(=O)O)[C@@H](O)[C@@H](O)[C@@H]1O` (some centres unmarked) [G6], `O=C(O)[C@H]1O[C@@H](O[C@H]2[C@H](O)[C@H](O)[C@H](O[C@H]3[C@H](O)[C@H](O)[C@H](O[C@H]4[C@H](O)[C@H](O)[C@H](O[C@H]5[C@H](O)[C@H](O)[C@H](O[C@H]6[C@H](O)[C@H](O)C(O)O[C@@H]6C(=O)O)O[C@@H]5C(=O)O)O[C@@H]4C(=O)O)O[C@@H]3C(=O)O)O[C@@H]2C(=O)O)[C@@H](O)[C@@H](O)[C@@H]1O` (some centres unmarked) [M6] is lower in “N (number of binding sites)” value: 1.0 ± 0.02 site for the first, 0.5 ± 0.02 site for the second.

Compared with `O=C(O)[C@@H]1O[C@@H](O[C@H]2[C@H](O)[C@H](O)[C@H](O[C@H]3[C@H](O)[C@H](O)[C@H](O[C@H]4[C@H](O)[C@H](O)[C@H](O[C@H]5[C@H](O)[C@H](O)[C@H](O[C@H]6[C@H](O)[C@H](O)[C@H](O[C@H]7[C@H](O)[C@H](O)C(O)O[C@H]7C(=O)O)O[C@H]6C(=O)O)O[C@H]5C(=O)O)O[C@H]4C(=O)O)O[C@H]3C(=O)O)O[C@H]2C(=O)O)[C@@H](O)[C@@H](O)[C@@H]1O` (some centres unmarked) [G7], `O=C(O)[C@H]1O[C@@H](O[C@H]2[C@H](O)[C@H](O)[C@H](O[C@H]3[C@H](O)[C@H](O)[C@H](O[C@H]4[C@H](O)[C@H](O)[C@H](O[C@H]5[C@H](O)[C@H](O)[C@H](O[C@H]6[C@H](O)[C@H](O)[C@H](O[C@H]7[C@H](O)[C@H](O)C(O)O[C@@H]7C(=O)O)O[C@@H]6C(=O)O)O[C@@H]5C(=O)O)O[C@@H]4C(=O)O)O[C@@H]3C(=O)O)O[C@@H]2C(=O)O)[C@@H](O)[C@@H](O)[C@@H]1O` (some centres unmarked) [M7] is lower in “N (number of binding sites)” value: 0.8 ± 0.01 site for the first, 0.5 ± 0.05 site for the second.
